For this test, the target named is T1, Pokeweed antiviral protein (PAP) (Phytolacca americana (pokeweed), UniProt P10297 23-285).
T1 construct: mature
T1 sequence: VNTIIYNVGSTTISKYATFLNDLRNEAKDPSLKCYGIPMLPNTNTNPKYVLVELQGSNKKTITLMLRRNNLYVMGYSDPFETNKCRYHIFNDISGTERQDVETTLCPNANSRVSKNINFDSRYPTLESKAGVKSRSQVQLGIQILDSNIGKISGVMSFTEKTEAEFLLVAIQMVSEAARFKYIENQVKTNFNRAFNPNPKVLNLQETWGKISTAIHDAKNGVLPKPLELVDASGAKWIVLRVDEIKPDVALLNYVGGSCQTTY
The experiment in a line: co-immunoprecipitation, isolated proteins in vitro.

B1: Mak8-1p (mutant yeast L3, W255C, P257S), in vitro synthesized, free form (other)
chain: MSHRKYEAPRHGHLGFLPRKRAASIRARVKAFPKDDRSKPVALTSFLGYKAGMTTIVRDLDRPGSKFHKREVVEAVTVVDTPPVVVVGVVGYVETPRGLRSLTTVWAEHLSDEVKRRFYKNWYKSKKKAFTKYSAKYAQDGAGIERELARIKKYASVVRVLVHTQIRKTPLAQKKAHLAEIQLNGGSISEKVDWAREHFEKTVAVDSVFEQNEMIDAIAVTKGHGFEGVTHRWGTKKLPRKTHRGLRKVACIGACHSAHVMWSVARAGQRGYHSRTSINHKIYRVGKGDDEANGATSFDRTKKTITPMGGFVHYGEIKNDFIMVKGCIPGNRKRIVTLRKSLYTNTSRKALEEVSLKWIDTASKFGKGRFQTPAEKHAFMGTLKKDL
notes: also called Mak8 (W255C, P257S); mak8-1 gene product
As to B1, the binding result is listed as “binds”.
